Bound protein data for one substance are collected here from patent US20160340405A1.

This test deals with HIV-1 89.6 envelope glycoprotein (Env) trimer expressed on 293T cells, lacking cytoplasmic residues 732 to 876 (HIV-1 isolate 89.6) (UniProt Q73372). The experiment in a line: flow cytometry on 293T cells expressing Env, anti-human Fc secondary antibody. A general note: Flow cytometry measures light scatter and fluorescence of single cells or particles in a stream.

Regarding “eCD4-Ig (fusion 3; CCR5mim1 fused to the carboxyl terminus of CD4-Ig) (Fc fusion)”, the bound protein at saturation, less than CD4-Ig (fraction less bound protein than CD4-Ig) was 0.33.
